In patent US9907860B2, “Conjugated molecules comprising a peptide derived from the CD4 receptor coupled to an anionic polypeptide for the treatment of AIDS” (INSTITUT PASTEUR, priority 2014, dated 2018):

Columns and labels:
[1] = test system: SHIV162p3 viral strain (B-R5); assay type: cell-based; settings: TZM-bl cells, luciferase, 48 h; clade-tropism B-R5
Protocol: (§1) The antiviral activity of the tested compounds was determined by pre-incubating 10^4 TZM-bl cells/well in a 96-well plate for 30 min at 37° C. and 5% CO2 with or without a serial dilution of the compound. Next, 200 TCID50 of viruses were added to each well and cultures were incubated for 48 h before luciferase activity was quantified. Each compound was tested in triplicate in a single experiment. Antiviral activity was expressed as the percentage of viral inhibition compared to the untreated control and plotted against the compound concentration. Next, non-linear regression analysis was used to calculate the 50% effective concentration (EC50).
(§2) The miniCD4 conjugates were then evaluated for their antiviral activity on TZM-bl cells that express Luciferase under the control of the HIV LTR (collaboration G. Vanham, Anvers) according to the protocol described above. All antiviral results are reported in the table below in the form of EC50 values (nM).

Bal viral strain (B-R5) = assay type: cell-based, HIV; settings: TZM-bl cells, luciferase, 48 h; clade-tropism B-R5; read-out: EC50, viral strain Bal
Protocol: as §1, §2

[2] = test system: Ca10-3 (CRF01) viral strain (AE-X4); assay type: cell-based, HIV; settings: TZM-bl cells, luciferase, 48 h; clade-tropism AE-X4
Protocol: as §1, §2

IIIB viral strain (B-X4) = assay type: cell-based, HIV; settings: TZM-bl cells, luciferase, 48 h; clade-tropism B-X4
Protocol: as §1, §2

MN viral strain (B-X4) = assay type: cell-based, HIV; settings: TZM-bl cells, luciferase, 48 h; clade-tropism B-X4
Protocol: as §1, §2

[3] = test system: MP568 (CRF02) viral strain (AG-R5); assay type: cell-based, HIV; settings: TZM-bl cells, luciferase, 48 h; clade-tropism AG-R5
Protocol: as §1, §2

[4] = test system: SF162 viral strain (B-R5); assay type: cell-based, HIV; settings: TZM-bl cells, luciferase, 48 h; clade-tropism B-R5; read-out: EC50, viral strain SF162
Protocol: as §1, §2

[5] = test system: VI1888 (CRF01) viral strain (AE-R5); assay type: cell-based, HIV; settings: TZM-bl cells, luciferase, 48 h; clade-tropism AE-R5; read-out: EC50, viral strain VI1888 (CRF01)
Protocol: as §1, §2

[6] = test system: VI820 viral strain (A-X4R5); assay type: cell-based, HIV; settings: TZM-bl cells, luciferase, 48 h; clade-tropism A-X4R5
Protocol: as §1, §2

[7] = test system: VI824 viral strain (D-R5); assay type: cell-based, HIV; settings: TZM-bl cells, luciferase, 48 h; clade-tropism D-R5
Protocol: as §1, §2

[8] = test system: VI829 viral strain (C-R5); assay type: cell-based, HIV; settings: TZM-bl cells, luciferase, 48 h; clade-tropism C-R5
Protocol: as §1, §2

[9] = Cytotoxic activity, WST-1 cell proliferation assay; assay type: cell-based; settings: human; WST-1, 48 h
Protocol: Cytotoxicity was determined using the water-soluble tetrazolium-1 (WST-1) cell proliferation assay, which is based on the cleavage of the tetrazolium salt WST-1 to a formazan dye by cellular dehydrogenases. Because this bioreduction is dependent on the glycolytic production of NAD(P)H in viable cells, the amount of formazan dye formed is correlated directly to the number of viable cells in a culture. Quantification is performed by measuring absorbance at 450 nm in a multiwell plate reader. An amount of 10^4 cells was plated per well in a 96-well plate, and a serial dilution of compound was added. Forty eight hours later, cell proliferation reagent was added and cell viability was measured compared to untreated control cultures. Cell viability was plotted against the compound concentration, and nonlinear regression analysis was performed to evaluate the 50% cytotoxic concentration (CC50).
The miniCD4 conjugates were then evaluated for their cytotoxic activity according to the protocol described above. All cytotoxic results are reported in the table below in the form of CC50 values (nM).

[10] = test system: p246F10 viral strain (C-R5); assay type: cell-based, HIV; settings: TZM-bl cells, luciferase, 48 h; clade-tropism C-R5
Protocol: as §1, §2

[11] = test system: pREJO.c/2864 cl2 viral strain (B-R5); assay type: cell-based, HIV; settings: TZM-bl cells, luciferase, 48 h; clade-tropism B-R5
Protocol: as §1, §2

[12] = test system: HIV-1 NL4-3 (X4) in primary CD4+ T cells; assay: Viral cell-to-cell transmission assay, HIV-1 NL4-3; assay type: cell-based; settings: X4 virus HIV-1 NL4-3, primary CD4+ T cells, intracellular Gag
Protocol: (§3) Primary CD4+ T cells were purified from human peripheral blood by positive selection (Miltenyi). About 98% of cells were CD4+CD3+. For activation, primary T cells were treated with phytohemagglutinin (PHA) (1 μg/ml) for 24 h and then cultured with interleukin 2 (IL-2) (50 IU/ml) for 3-5 days before use. Primary cells were infected with HIV-1 NL4-3 and NLAD8 as described in Lepelley et al. PLoS Pathog 2011, 7:e1001284 and Malbec et al. J Exp Med 2013, 210:2813-2821. Donor cells were used a few days later, when about 20% of the cells were Gag+. Target cells were labeled with FarRed (2.5 μM; Molecular Probes). Donors were preincubated 1 h with the indicated doses of compounds. Donor and target cells were then mixed at a 1:2 ratio in 96-well plates at a final concentration of 1.5×10^6/ml in 200 μl, in duplicates. After 48, 72 or 96 h, cells were stained for intracellular Gag (KC57 mAb, Coulter) and analyzed by flow cytometry. When stated, Nevirapine (NVP; 12.5 nM) or the NIH45-46 broadly neutralizing antibody (bNAb) (Malbec et al. J Exp Med 2013, 210:2813-2821) was added 1 h before coculture.
(§4) mCD4.1, mCD4.2, mCD4.3 and their PS1 conjugates, as well as Nevirapine and NIH45-46, were evaluated for their capacity to inhibit cell-cell HIV transmission. This was performed using primary cells infected with R5 (HIV1-NLAD8) and X4 (HIV1-NL4-3) viruses.

[13] = test system: HIV-1 NLAD8 (R5) in primary CD4+ T cells; assay: Viral cell-to-cell transmission assay, HIV-1 NLAD8; assay type: cell-based; settings: R5 virus HIV-1 NLAD8, primary CD4+ T cells, intracellular Gag
Protocol: as §3, §4

Row | Compound | EC50 [1] | EC50 (Bal viral strain (B-R5)) | EC50 [2] | EC50 (IIIB viral strain (B-X4)) | EC50 (MN viral strain (B-X4)) | EC50 [3] | EC50 [4] | EC50 [5] | EC50 [6] | EC50 [7] | EC50 [8] | CC50 at 48 h [9] | EC50 [10] | EC50 [11] | block of cell-cell virus transmission [12] | block of cell-cell virus transmission [13]
1 | CC(C)C[C@@H]1NC(=O)CNC(=O)[C@H](CC(C)C)NC(=O)[C@H](CO)NC(=O)[C@H](CCCCNC(=O)CCOCCOCCNC(=O)CCN2C(=O)CC(SCCC(=O)NCCCC(=O)N[C@@H](CO)C(=O)N[C@@H](Cc3ccc(OS(=O)(=O)O)cc3)C(=O)N[C@@H](CC(=O)O)C(=O)N[C@@H](Cc3ccc(OS(=O)(=O)O)cc3)C(=O)N[C@@H](CO)C(=O)N[C@@H](Cc3ccc(OS(=O)(=O)O)cc3)C(=O)N[C@@H](CC(=O)O)C(=O)N[C@@H](Cc3ccc(OS(=O)(=O)O)cc3)C(=O)N[C@@H](CO)C(=O)N[C@@H](Cc3ccc(OS(=O)(=O)O)cc3)C(=O)N[C@@H](CC(=O)O)C(=O)N[C@@H](Cc3ccc(OS(=O)(=O)O)cc3)C(=O)N[C@@H](CO)C(=O)O)C2=O)NC(=O)[C@@H]2CSSC[C@@H](C(=O)N[C@H](C(N)=O)C(C)C)NC(=O)[C@H](C)NC(=O)[C@@H]3CSSC[C@H](NC(=O)[C@H](Cc4ccccc4)NC(=O)[C@H](Cc4c[nH]cn4)NC(=O)[C@H](CC(C)C)NC(=O)[C@H](CC(N)=O)NC(=O)CCSSC[C@H](NC(=O)[C@H](CCCNC(=N)N)NC(=O)CNC(=O)[C@H](CC(C)C)NC1=O)C(=O)N[C@@H](C)C(=O)N1CCC[C@@H]1C(=O)N[C@@H]([C@@H](C)O)C(=O)N[C@@H](Cc1ccc(OCC4CCCCC4)cc1)C(=O)N3)C(=O)N[C@@H](CCC(N)=O)C(=O)N[C@@H](CC(C)C)C(=O)N[C@@H](CCCNC(=N)N)C(=O)N2 (stereo partly shown) [M48U1-PS1] | 3.4 nM | 0.13 nM | 0.6 nM | 0.02 nM | 0.12 nM | 15 nM | 0.05 nM | 1070 nM | 0.1 nM | 2.2 nM | 1.1 nM | > 50000 nM | – | – | – | –
2 | CC(C)C[C@@H]1NC(=O)CNC(=O)[C@H](CC(C)C)NC(=O)[C@H](CO)NC(=O)[C@H](CO)NC(=O)[C@@H]2CSSC[C@@H](C(=O)N[C@H](C(N)=O)C(C)C)NC(=O)[C@H](C)NC(=O)[C@@H]3CSSC[C@H](NC(=O)[C@H](CCCCNC(=O)CCOCCOCCNC(=O)CCN4C(=O)CC(SCCC(=O)NCCCC(=O)N[C@@H](CO)C(=O)N[C@@H](Cc5ccc(OS(=O)(=O)O)cc5)C(=O)N[C@@H](CC(=O)O)C(=O)N[C@@H](Cc5ccc(OS(=O)(=O)O)cc5)C(=O)N[C@@H](CO)C(=O)N[C@@H](Cc5ccc(OS(=O)(=O)O)cc5)C(=O)N[C@@H](CC(=O)O)C(=O)N[C@@H](Cc5ccc(OS(=O)(=O)O)cc5)C(=O)N[C@@H](CO)C(=O)N[C@@H](Cc5ccc(OS(=O)(=O)O)cc5)C(=O)N[C@@H](CC(=O)O)C(=O)N[C@@H](Cc5ccc(OS(=O)(=O)O)cc5)C(=O)N[C@@H](CO)C(=O)O)C4=O)NC(=O)[C@H](Cc4c[nH]cn4)NC(=O)[C@H](CC(C)C)NC(=O)[C@H](CC(N)=O)NC(=O)CCSSC[C@H](NC(=O)[C@H](CCCNC(=N)N)NC(=O)CNC(=O)[C@H](CC(C)C)NC1=O)C(=O)N[C@@H](C)C(=O)NCC(=O)N[C@@H](CO)C(=O)N[C@@H](Cc1ccc(-c4ccccc4)cc1)C(=O)N3)C(=O)N[C@@H](CCC(N)=O)C(=O)N[C@@H](CC(C)C)C(=O)N[C@@H](CCCNC(=N)N)C(=O)N2 (stereo partly shown) [mCD4.1-PS1] | 36 nM | 0.54 nM | 0.57 nM | 0.013 nM | 0.08 nM | 310 nM | 0.11 nM | 1100 nM | 25 nM | 40 nM | 16 nM | > 50000 nM | 723 nM | 0.66 nM | also but to a lesser extend | also but to a lesser extend
3 | CC(C)C[C@@H]1NC(=O)CNC(=O)[C@H](CC(C)C)NC(=O)[C@H](CO)NC(=O)[C@H](CCCNC(=N)N)NC(=O)[C@@H]2CSSC[C@@H](C(=O)N[C@H](C(N)=O)C(C)C)NC(=O)[C@H](C)NC(=O)[C@@H]3CSSC[C@H](NC(=O)[C@H](CCCCNC(=O)CCOCCOCCNC(=O)CCN4C(=O)CC(SCCC(=O)NCCCC(=O)N[C@@H](CO)C(=O)N[C@@H](Cc5ccc(OS(=O)(=O)O)cc5)C(=O)N[C@@H](CC(=O)O)C(=O)N[C@@H](Cc5ccc(OS(=O)(=O)O)cc5)C(=O)N[C@@H](CO)C(=O)N[C@@H](Cc5ccc(OS(=O)(=O)O)cc5)C(=O)N[C@@H](CC(=O)O)C(=O)N[C@@H](Cc5ccc(OS(=O)(=O)O)cc5)C(=O)N[C@@H](CO)C(=O)N[C@@H](Cc5ccc(OS(=O)(=O)O)cc5)C(=O)N[C@@H](CC(=O)O)C(=O)N[C@@H](Cc5ccc(OS(=O)(=O)O)cc5)C(=O)N[C@@H](CO)C(=O)O)C4=O)NC(=O)[C@H](Cc4c[nH]cn4)NC(=O)[C@H](CC(C)C)NC(=O)[C@H](CC(N)=O)NC(=O)CCSSC[C@H](NC(=O)[C@H](CCCNC(=N)N)NC(=O)CNC(=O)[C@H](CC(C)C)NC1=O)C(=O)N[C@@H](C)C(=O)N1CCC[C@@H]1C(=O)N[C@@H]([C@@H](C)O)C(=O)N[C@@H](Cc1ccc(OCC4CCCCC4)cc1)C(=O)N3)C(=O)N[C@@H](CCC(N)=O)C(=O)N[C@@H](CC(C)C)C(=O)N[C@@H](CCCNC(=N)N)C(=O)N2 (stereo partly shown) [mCD4.3-PS1] | – | – | – | – | – | – | – | – | – | – | – | > 50000 nM | – | – | able to block cell-cell virus transmission | able to block cell-cell virus transmission
